Results of unrelated studies side by side (data: NIAID ChemDB).

All rows: growth or infection tests; organism: Rhinovirus; read-out: inhibition

Two numbers with a dash give a range or band. Conditions beyond the fields shown may differ between rows. Blank or dashed fields: not listed here. Inhibition is in % at the dose shown (toxicity tests: loss of growth or viability).

structure,method,cell line,tested at,strain or isolate,value
CN(C)c1nc(C(F)(F)F)nc2c1ncn2Cc1ccc(C(F)(F)F)cc1,plaque count,M-HELA,4 µM,Serotype 2,23%
O=S(=O)(O)c1ccc(N=Nc2c(O)ccc3cc(S(=O)(=O)O)ccc23)cc1,cytopathic effect,Human embryonic lung cells,10 µg/mL,,10%
CN(C)c1nc(C(F)(F)F)nc2c1ncn2Cc1ccc(Cl)c(NC=O)c1,plaque count,M-HELA,8 µM,Serotype 2,35%
O=C(O)Cc1csc(/N=C2\SC[C@@H]3Cc4ccccc4CN23)n1,cytopathic effect,MRC-5,3 µg/mL,Serotype 3,80–100%
CN(C)c1nc(C(F)(F)F)nc2c1ncn2Cc1ccccc1Cl,plaque count,M-HELA,8 µM,Serotype 5,24%
Nc1ccc2cc(S(=O)(=O)O)cc(S(=O)(=O)O)c2c1,cytopathic effect,Human amnion AV3 cells,5 µg/mL,,7%
Cc1cccc(N2CCN(c3ccc(Br)nn3)CC2)c1,,,16 µg/mL,100 serotypes,71%
Cc1cc(-c2ccc(N=Nc3ccc4c(S(=O)(=O)O)cc(S(=O)(=O)O)c(N)c4c3O)c(C)c2)ccc1N=Nc1ccc2c(S(=O)(=O)O)cc(S(=O)(=O)O)c(N)c2c1O,cytopathic effect,Human amnion AV3 cells,10 µg/mL,,0%
CC1(C)COC(c2ccc(OCCN3CCN(c4ccc(Cl)nn4)CC3)cc2)=N1,,,0.7 µg/mL,17 serotypes,18%
O=S(=O)([O-])c1cccc(O)c1,cytopathic effect,Human embryonic lung cells,50 µg/mL,,0%
N#Cc1cc([N+](=O)[O-])ccc1Oc1ccc(Cl)c(Cl)c1,,VERO,0.78 µg/mL,TYPE 1A,44%
Cc1cc(CCCCCCCOc2ccc(C3=NCCO3)cc2)on1,,,3.2 µg/mL,100 serotypes,71%
Cc1ccc(Cn2cnc3c(N(C)C)nc(C(F)(F)F)nc32)c(C)c1,plaque count,M-HELA,8 µM,Serotype 30,33%
O=S(=O)([O-])c1ccc2c(S(=O)(=O)[O-])cc(S(=O)(=O)[O-])cc2c1,cytopathic effect,Human embryonic lung cells,5 µg/mL,,10%
CCOC(=O)c1csc(N2CCN(Cc3cc(C)ccc3C)CC2)n1,,,10 µg/mL,100 serotypes,71%
CN(C)c1nc(C(F)(F)F)nc2c1ncn2Cc1ccc(Cl)c(N)c1,plaque count,M-HELA,8 µM,Serotype 21,10%
CS(=O)(=O)c1ccc2c(c1)CCC(c1ccc(Cl)c(Cl)c1)O2,,,32 µg/mL,100 serotypes,71%
O=S(=O)([O-])c1ccccc1S(=O)(=O)[O-],cytopathic effect,Human embryonic lung cells,10 µg/mL,,10%
CN(C)c1nc(C(F)(F)F)nc2c1ncn2Cc1ccc(Cl)c(Cl)c1,plaque count,M-HELA,8 µM,Serotype 3,40%
O=S(=O)([O-])c1cc(S(=O)(=O)[O-])c2cc(NS(=O)(=O)c3ccccc3)ccc2c1,cytopathic effect,Human amnion AV3 cells,5 µg/mL,,20%
CN(C)c1nc(C(F)(F)F)nc2c1ncn2Cc1ccc(F)cc1,plaque count,M-HELA,8 µM,Serotype 13,42%